Reference: patent publication US20240175010
For at least one entry, the source does not settle the construct or the ends of the probe. Tags and fusion partners may be left off the protein sequences shown.

Biological target: T1, Tn5 transposase (bead-linked transposomes) (UniProt Q46731)
T1 sequence (looked up, limits assumed): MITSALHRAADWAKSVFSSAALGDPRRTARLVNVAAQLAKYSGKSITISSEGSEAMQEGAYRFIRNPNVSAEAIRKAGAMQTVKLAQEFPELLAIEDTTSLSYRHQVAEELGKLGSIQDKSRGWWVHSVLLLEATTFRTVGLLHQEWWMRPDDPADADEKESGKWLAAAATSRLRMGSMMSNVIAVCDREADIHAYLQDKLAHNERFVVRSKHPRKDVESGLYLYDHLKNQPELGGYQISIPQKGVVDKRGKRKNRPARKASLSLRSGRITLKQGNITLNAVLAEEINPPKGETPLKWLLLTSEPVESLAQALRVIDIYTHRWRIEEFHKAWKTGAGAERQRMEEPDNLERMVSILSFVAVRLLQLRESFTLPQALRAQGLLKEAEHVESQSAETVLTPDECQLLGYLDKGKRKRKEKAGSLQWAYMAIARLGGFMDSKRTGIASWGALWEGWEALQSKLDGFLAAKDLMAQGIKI
Assay: activity assay
Conditions: inosine at position 19, NTS 5'-phosphate, 3'-biotin [19 (inosine, parent G, transferred strand), non-transferred strand 5'-phosphate, BLT activity higher than position 16, highest performance, purified recombinant protein, protein details: Illumina, letters built from the parent sequence and the stated change, variant of wild-type mosaic end

Sequence: AGATGTGTATAAGAGACAG (double strand) [I19 ME]
- activity on this sequence: active
